Consider four molecules from publication PMC3866116 (PLoS ONE, 2013).

The data set has as its system HCV subgenomic replicon RNA of genotype 1b strain N (Huh7/Rep-Feo cells). Description: Luciferase assay in HCV subgenomic replicon cell line Huh7/Rep-Feo. Format: cell-based, hepatitis C virus. The note with it: strain N (1b). As to the method:
The Huh7/Rep-Feo cell line, which harbors the subgenomic replicon RNA composed of HCV IRES, the gene of the fusion protein consisting of neomycin phosphotransferase and firefly luciferase, EMCV IRES and a nonstructural gene of genotype 1b strain N in order in Huh7 cell line, was previously established. Thus, the luciferase activity corresponds to the level of HCV RNA replication. The cell line was maintained in Dulbecco's modified Eagle medium containing 10% fetal calf serum and 0.5 mg/mL G418 and cultured in absence of G418 when they were treated with compounds. The Lunet/Con1LUN Sb #26 cell line, which harbors the subgenomic replicon RNA of the Con1 strain (genotype 1b), was described previously. The OR6 cell line, which harbors the full genomic replicon RNA of the O strain (genotype 1b), was described previously. The HCV replicon cell line derived from the genotype 2a strain JFH1 was described previously. The viral RNA derived from the plasmid pJFH1 was transcribed and introduced into Huh7OK1 cells according to the method of Wakita et al.. The virus was amplified by the several times passages. The cells were infected with the virus at a multiplicity of infection (moi) of 1 and then treated with each compound at 24 h post-infection. The culture supernatants were harvested 72 h post-treatment to estimate the viral RNA as described below.
The replicon cells were seeded at 2×10^4 cells per well in a 48-well plate 24 h before treatment. […] The resulting cells were harvested 72 h post-treatment and lysed with cell culture lysis reagent (Promega, Madison, WI). The luciferase activity of each cell lysate was estimated using a luciferase assay system (Promega). The resulting luminescence was detected by a Luminescencer-JNR AB-2100 (ATTO, Tokyo, Japan).
Background: Replicon systems follow genome replication, usually without infectious particles.
On to `COc1cc(/C=C/C(=O)O)ccc1O` [Compound 3, ferulic acid], for which the “SI, selectivity index (CC50/EC50)” value is greater than 4.5.
With `O=C(C=Cc1ccccc1)OCCc1ccccc1` [Compound 4, Cinnamic acid phenethyl ester], the “SI, selectivity index (CC50/EC50)” value is reported as greater than 3.7.
For the molecule `COC(=O)/C=C/c1ccc(O)c(O)c1` [Compound 7, caffeic acid methyl ester], the “SI, selectivity index (CC50/EC50)” value is recorded as 4.2.
For the molecule `COC(=O)CCc1ccc(O)c(O)c1` [Compound 12, Dihydrocaffeic acid methyl ester], the “SI, selectivity index (CC50/EC50)” value amounted to 1.8.
